# Experimental data published in paper PMC7157764, “Avoiding Drug Resistance by Substrate Envelope-Guided Design: Toward Potent and Robust HCV NS3/4A Protease Inhibitors” (mBio, 2020).
# Structures were worked out from names or drawings and are uncertain.
# Test system: HCV NS3/4A protease D168A variant
# Assay: Enzyme inhibition assay, D168A NS3/4A protease variant
# Details: Ki D168A / Ki GT1a WT, in parentheses in Table S1
# Protocol: The HCV GT1a NS3/4A protease gene described in the Bristol Myers Squibb patent was synthesized by GenScript and cloned into a PET28a expression vector ([52]). Cys159 was mutated to a serine residue to prevent disulfide bond formation and facilitate crystallization. The D168A gene was engineered using a site-directed mutagenesis protocol from Stratagene. Protein expression and purification were carried out as previously described ([28]). Briefly, transformed Escherichia coli BL21(DE3) cells were grown in Tris-borate (TB) medium containing 30 μg/ml of kanamycin antibiotic at 37°C. […]
# The inner-filter effect (IFE) for the NS3/4A protease substrate was determined using a previously described method ([53]). […] The fluorescence of free 5-FAM was determined by subtracting the first fluorescence endpoint reading from the reading at the second round. IFE corrections were then calculated by dividing the free 5-FAM florescence at each substrate concentration by the free 5-FAM florescence at zero substrate.
# Km constants for GT1 and D168A protease were previously determined ([29]). […] The fluorescence output from the substrate cleavage product was measured kinetically using an EnVision plate reader (Perkin-Elmer) with excitation wavelength at 485 nm and emission at 530 nm. […]
smiles,measurement,value
COC(=O)N[C@H](C(=O)N[C@H]1CCCCC/C=C\[C@@H]2C[C@@]2(C(=O)NS(=O)(=O)C2(C)CC2)NC(=O)[C@@H]2C[C@@H](Oc3nc4cc(OC)ccc4nc3C)CN2C1=O)C1CCCCC1,"Fold change of Ki, D168A relative to WT",11 fold
